A mixed list of measured activities; the numbers were collected in NIAID ChemDB.

All rows: growth or infection tests; species: HIV-1; method: cytopathic effect / XTT; endpoint: EC50

An empty or dashed field is not shown. Two numbers with a dash give a range or band. Rows are shuffled and stem from different studies. ECn: concentration that inhibits the pathogen or its effect by n%.

SMILES,cells,mutations,strain or isolate,result
COc1cc(OC2O[C@H](COC3O[C@@H](C)[C@H](O)[C@@H](O)[C@H]3O)[C@@H](O)[C@H](O)[C@H]2O)c2c(C)c3c(=O)oc(C)cc3c(OC)c2c1,C8166,,MN,30 µg/mL
CC(C)OC(=O)c1cc(NC(=O)C(C)(C)C)c(F)cc1Cl,CEM,,IIIB,0.0427 µg/mL
C=CC1=C(C)C2=NC1=CC1=NC(=Cc3[n-]c4c(c3C)=C([O-])[C@H](C(=O)OC)C=4C3=NC(=C2)[C@@H](C)[C@@H]3CCC(=O)OC/C=C(\C)CCCC(C)CCCC(C)CCCC(C)C)C(CC)=C1C.[Mg+2],MT-2,,IIIB,>80 µg/mL
[O-][n+]1onc2ncnc(N3CC[N+]4(CC3)CC[N+]3(CCN(c5ncnc6no[n+]([O-])c56)CC3)CC4)c21,MT-4,RT-K103N Y181C,A17,33.7 µM
Cc1cn([C@H]2C[C@H](O)[C@@H](COC(=O)CCCCCCCCCCCBr)O2)c(=O)[nH]c1=O,CEM,,,25.7 µM
CCn1cc(C(=O)O)c(=O)c2cc(F)c(N3CCN(CN4C(=O)C(=Nc5ccc(S(=O)(=O)Nc6nc(C)cc(C)n6)cc5)c5ccccc54)C(C)C3)c(F)c21,CEM,,IIIB,>117 µM
Cc1cc(OC(F)(F)c2nc3ccccc3o2)cc(C)c1C,CEM + CEM-SS,,RF,13 µM
CC1=C(C(=O)Nc2cc(C(=O)OC(C)C)c(Cl)cc2F)SCCO1,MT-2,,IIIB,0.0032 µg/mL
CCC(=O)c1ccc(F)c([C@H]2C[C@H]2NC(=O)Nc2ccc(C#N)cn2)c1O,MT-4,,IIIB,0.002 µM
C1=Cc2nc1c(-c1ccccc1)c1ccc([nH]1)c(-c1ccccc1)c1nc(c(-c3ccccc3)c3ccc([nH]3)c2-c2ccccc2)C=C1,MT-2,,IIIB,38.2 µg/mL
CCOc1ccc(F)c(CCNC(=S)Nc2ncc(C(F)(F)F)s2)c1Cl,MT-4,RT-Y181C,IIIB,>2 µM
CC(C)=CCN1CC(C)Cn2c(=S)[nH]c3cccc1c32,CEM(SS) + CEM-SS,,RF,1.4 µM
FC(F)(Sc1ncccn1)c1nc2ccccc2o1,CEM + CEM-SS,,RF,3.14 µM
O=C(O)CCCCCC(=O)OC[C@H]1O[C@@H](n2cc(-c3cccs3)c(=O)[nH]c2=O)C[C@@H]1O,MT-4,,,>100 µg/mL
COCCOC(=O)c1cc(NC(=O)C2=C(C)OCCS2)ccc1Cl,CEM,,IIIB,0.00034 µg/mL
C=Cc1c(C)c2cc3[nH]c(cc4nc(cc5nc(cc1[nH]2)C(C)=C5CCC(=O)O)C(CCC(=O)O)=C4C)c(C)c3C=C,MT-2,,IIIB,1 µg/mL
Cc1ccc(-c2cc(-c3ccco3)c(C#N)c(=O)n2[C@@H]2O[C@H](CO)[C@@H](O)[C@H](O)[C@H]2O)cc1,MT-4,,,8.03 µM
COc1cccc2c1N(C(=O)OC(C)C)C(CSC)C(=S)N2,MT-4,RT-Y181C,IIIB,0.07 µM
CO[C@H]1N([C@H]2C=C[C@@H](CO)O2)C(=O)NC(=O)[C@]1(C)Cl,CEM,,,375 µM
CN(C)c1ccc(F)c(CCNC(=S)Nc2ccc(Cl)cn2)c1F,MT-4,,IIIB,0.04 µM
CCn1cc(C(=O)O)c(=O)c2cc(F)c(N3CCN(CN4C(=O)C(=Nc5ccc(S(=O)(=O)Nc6nc(C)cc(C)n6)cc5)c5cc(F)ccc54)C(C)C3)c(F)c21,CEM,,IIIB,>115 µM
CN1N=C(N)c2cn([C@@H]3O[C@H](COP(=O)(O)O)[C@@H](O)[C@H]3O)c3ncnc1c23,CEM + CEM-SS,,SK1,0.19 µM
CCC(C)C(NC(=O)c1ccccc1SSc1ccccc1C(=O)NC(C(=O)O)C(C)CC)C(=O)O,CEM + CEM-SS,,N119 (nevirapine-resistant),3.5 µM
COc1ccc2c(c1)CCC/C2=N\OC(=O)Nc1ccccc1-c1ccccc1,MT-2,,IIIB,>100 µg/mL
FC(F)(Sc1ccccn1)c1nc2ccccc2o1,CEM + CEM-SS,,RF,29.2 µM
Cc1cn([C@H]2C[C@H](O)[C@@H](COC(=O)CCCCC(=O)O)O2)c(=O)[nH]c1=O,MT-4,,,>100 µg/mL
CC(C)=CCOc1cc(NC(=S)c2ccsc2C)ccc1Cl,CEM + CEM-SS,RT-Y181C,UC040-R (RT-Y181C),0.1 µM
CO[C@H]1N([C@H]2C=C[C@@H](CO)O2)C(=O)NC(=O)[C@]1(C)Br,CEM,,,54.6 µM
O=C(O)C1CCC(C(=O)OC[C@H]2O[C@@H](n3cc(-c4cccs4)c(=O)[nH]c3=O)C[C@@H]2O)CC1,MT-4,,,>100 µg/mL
CC(C)=CCN1Cc2cccc3[nH]c(=O)n(c23)CC1C,CEM + CEM-SS,RT-Y181C,UC82-R (RT-Y181C),4.4 µM
CCCc1cc(=O)oc2c3c(c4c(c12)OC(C)(C)CC4)O[C@H](C)[C@@H](C)C3=O,MT-2,,IIIB,2.62 µM
CC(C)=CCOc1cc(NC(=S)c2ccoc2C)ccc1Cl,CEM + CEM-SS,RT-A98G V108I,TIBO R82150-resistant (RT A98G V108I),0.3 µM
C=CC[C@H](NC(=O)[C@H](Cc1ccccc1)NS(=O)(=O)N1CCOCC1)C(=O)N[C@@H](CC1CCCCC1)[C@@H](O)C[C@H](C(=O)NCCCC)C(C)C,CEM,,IIIB,1.9 µM
Cc1cc(S(=O)(=O)n2cccc2)c(SC(C(=O)O)c2ccccc2)cc1Cl,CEM,,,>200 µM
COc1ccc(N2CCN(CN3C(=O)C(=Nc4ccc(S(=O)(=O)Nc5nc(C)cc(C)n5)cc4)c4ccccc43)CC2)cc1,CEM,,IIIB,>34.8 µM
CCCCCCCCCCCCCCCC(=O)Nc1ccn([C@H]2CC[C@@H](COP(=O)(O)OC[C@@H]3CC[C@H](n4cnc5c(=O)[nH]cnc54)O3)O2)c(=O)n1,CEM + CEM-SS,,IIIB,0.697–1.02 µM
Cc1cc(S(=O)(=O)n2cccc2)c(SCC(=O)n2cccc2)cc1Cl,CEM,,,>200 µM
C[C@]1(Br)C(=O)NC(=O)N([C@H]2C=C[C@@H](CO)O2)[C@@H]1N=[N+]=[N-],CEM,,,0.918 µM
Cc1cn([C@H]2C[C@H](O)[C@@H](COC(=O)CCCC(=O)O)O2)c(=O)[nH]c1=O,MT-4,,,>100 µg/mL
CC1=C(CCC(=O)O)c2cc3[nH]c(cc4nc(cc5[nH]c(cc1n2)c(CCC(=O)O)c5CC(=O)O)C(CCC(=O)O)=C4C)c(CCC(=O)O)c3CC(=O)O,MT-2,,IIIB,16.9 µg/mL
Cc1ccoc1C(=O)Nc1ccc(Cl)c(C(=O)OC(C)C)c1,CEM,,IIIB,0.0033 µg/mL
CCCc1cc(=O)oc2c3c(c4c(c12)OC(C)(C)CC4)O[C@@H](C)[C@H](C)[C@@H]3O,CEM + CEM-SS,,NL4-3,0.5 µM
COc1cc(-c2ccc(N=Nc3ccc4c(S(=O)(=O)O)cc(S(=O)(=O)O)c(N)c4c3O)c(OC)c2)ccc1N=Nc1ccc2c(S(=O)(=O)O)cc(S(=O)(=O)O)c(N)c2c1O,CEM + CEM-SS,,214,0.6 µM
Cc1cc(S(=O)(=O)n2cccc2)c(SC/C(=N\NC(=O)Nc2ccccc2)c2ccc(Br)cc2)cc1Cl,CEM,,,5.1 µM
COc1ccc(N2CCN(CN3C(=O)C(=Nc4ccc(S(=O)(=O)Nc5nc(C)cc(C)n5)cc4)c4cc(F)ccc43)CC2)cc1,CEM,,IIIB,>35.2 µM
CCCCCCCCCCCCCCCC(=O)Nc1ccn([C@H]2CC[C@@H](COP(=O)(O)OC[C@H]3O[C@@H](n4cc(C)c(=O)[nH]c4=O)C[C@@H]3N=[N+]=[N-])O2)c(=O)n1,CEM + CEM-SS,RT-M41L D67N K70R T215Y,D148/89 (AZT-resistant RT M41L D67N K70R T215Y),0.045 µM
Cc1cc(S(=O)(=O)n2cccc2)c(SCC(=O)c2ccc(Br)cc2)cc1Cl,CEM,,,>200 µM
C=CC1=C(C)C2=NC1=CC1=NC(=CC3=C(C)C(=C([O-])[O-])C(=N3)C(CC(=O)O)=C3NC(=C2)C(C)C3CCC(=O)O)C(CC)=C1C.[Mg+2],MT-2,,IIIB,64.5 µg/mL
Cc1cn([C@H]2C[C@H](OP(=O)(O)OC[C@@H]3CC[C@H](n4ccc(N)nc4=O)O3)[C@@H](CO)O2)c(=O)[nH]c1=O,CEM + CEM-SS,,IIIB,0.134–0.267 µM

For reference, 7 entries again:

| SMILES | cells | mutations | strain or isolate | result |
|---|---|---|---|---|
| Cc1ccc(-c2cc(-c3ccco3)c(C#N)c(=O)n2[C@@H]2O[C@H](CO)[C@@H](O)[C@H](O)[C@H]2O)cc1 | MT-4 |  |  | 8.03 µM |
| C=Cc1c(C)c2cc3[nH]c(cc4nc(cc5nc(cc1[nH]2)C(C)=C5CCC(=O)O)C(CCC(=O)O)=C4C)c(C)c3C=C | MT-2 |  | IIIB | 1 µg/mL |
| CCOc1ccc(F)c(CCNC(=S)Nc2ncc(C(F)(F)F)s2)c1Cl | MT-4 | RT-Y181C | IIIB | >2 µM |
| CCCCCCCCCCCCCCCC(=O)Nc1ccn([C@H]2CC[C@@H](COP(=O)(O)OC[C@@H]3CC[C@H](n4cnc5c(=O)[nH]cnc54)O3)O2)c(=O)n1 | CEM + CEM-SS |  | IIIB | 0.697–1.02 µM |
| CN(C)c1ccc(F)c(CCNC(=S)Nc2ccc(Cl)cn2)c1F | MT-4 |  | IIIB | 0.04 µM |
| COc1cccc2c1N(C(=O)OC(C)C)C(CSC)C(=S)N2 | MT-4 | RT-Y181C | IIIB | 0.07 µM |
| Cc1cn([C@H]2C[C@H](O)[C@@H](COC(=O)CCCCCCCCCCCBr)O2)c(=O)[nH]c1=O | CEM |  |  | 25.7 µM |